Seven sequences from publication PMC9948739 can be followed below.

Data set [1] addresses His-OpaR (Vibrio parahaemolyticus RIMD2210633) (UniProt Q79YV4). Briefly: EMSA. Particulars: 10 mM Tris-HCl pH 7.5, 50 mM NaCl, 1 mM MgCl2, 0.5 mM EDTA, 0.5 mM DTT, 100 ng DNA in 10 ul, room temperature 20 min, recombinant protein, residues 1-204, protein details: 6xHis (pET28a), probe letters rebuilt from the primers and the genome.
Data set [2] relates to His-QsvR (Vibrio parahaemolyticus RIMD2210633). The data set is described as follows: EMSA. The note with it: 10 mM Tris-HCl pH 7.5, 50 mM NaCl, 1 mM MgCl2, 0.5 mM EDTA, 0.5 mM DTT, 100 ng DNA in 10 ul, room temperature 20 min; recombinant protein; residues 1-267; protein details: 6xHis (pET28a); probe letters rebuilt from the primers and the genome.
Where [3] appears, read: QsvR titration, no competition between proteins.

For part of these data: For at least one entry, the source does not settle the construct or the ends of the probe. For part of these data: At least one verdict was read from the data and is not stated in words by the source.

For the sequence “AACGACACTCTGAGCATCATTCGTCTAAGTGTAACAAAGCATAATGTTGTACTTATCTCGAATGTCAATTCGCTACTTACTTCGATATTGACGGGTTAGTGTTAGTTATGGCTGGGTGATCCTTCATTACACCAGTACGCTCTAGTTAAAATCACTAAAACCGCCTGCAAATAAATTGTCTTTTCAATGAGACGCATTCTTTAGAACTTGGTAAAATCCCATAGGAAACTATTTACATGCTGATTGTTTTTTAACTAAAATGACAAATGGTATGTTCTAAACAGACCAAACATCGATGTTTTAAAATCTGAAATACAAGGATTAATAATGAAGAACACAGCTCTAGCTATTCTTATGGCTCTAAGCGCATCAACTGCATTCGCAGCTGAAGAAGCAGGTTCTGCTGGTGCAGCATCTGCATCTGCAACAGGTACAACTGCAGTAGCAGTAGGTGCAGCAGCAGCAGTAACTGTAGTAGCAGTTGCAGCG (double strand) [vp0218 regulatory fragment]”, the binding result in data set [1] and in data set [2] was “binds” throughout.
Regarding “ATGGCATCACGACCTGTCTCGACATGGAAAATGTCGTAAGGCTCATCTTTCACATATTGCTTATAAAGTATGGCTAATGAGGTAGAGTCTTCTACCAGTAACACCCTTGGTCTCATAGTCCTATCCCAACTTAATCTGATTCATTGTTATGATTCTGCTAGCTCACTTGGAGATTAATGAGAAAGAAAAAATAGATAAGCATCCTCAAGTCGCTAGAAGATTCTCAATTTGAGAAAAGTTATAGTTAAGTATTAGCACAGGGCAGGGATATTGCGAAAATTCTTTACTTTTTAATTGATTAAGCGCGGAATGAATTTTAAAAGATGAAGACCAAATCGCACTTGAATAAGTGCGATGGTTCATATGGTTTTGCGGGTTTTCTTCTTGTTACTCAAAACCTTGAGCCTTGCGCAGGTTGAGCGCTTCAAACGAACGTTCAGCTAGTAAAGGCAATGCCGCACACAGCTCCAATGCTTGTTGGGTTTTACCTTCGACACAATGTTTCTCGATGCTTCTGGCTTGACGAGATAATGGGCGATTGCCTAATGCCAGTGCAGAACTGCCGAGTGTATGGACTTCAAACTCGAGTTTTTCTAGGTCATGTTCACCCAACGCCCGCTCAATTTTTTGCATCCGTTCACGAGACTCTT (double strand) [scvE upstream fragment]”, the binding result in data set [1] is on record as “binds”.
Turning to “CCAGCCATAACTAACACTAACCCGTCAATATCGAAGTAAGTAGCGAATTGACATTCGAGATAAGTACAACATTATGCTTTGTTACACTTAGACGAATGATGCTCAGAGTGTCGTTGCTCTCAAAAACAAGAATGCCTATTCTCAAACGTTAGAGTGAGCCCCCTTGCCGTTTTGCGCTAATCCATGCATAATTTGCCAGCTTTTATGCTGTGCTTATCAAGTATGATTTTTTGATTTTCTTGTCACAAAAGCGACGCTTGAAAAAAGCACCTATATCAATAAGCCGAGCAGCTCGGTAATCAGCGAACAGTGGCTACGCGTAATGCCGCAGGGCGGTAGCGTGAAAACGCACAAGCAAACAGACTAAAGAGTTAACAGACATTCACTGCGTGCGTCATTCATGTGCAGCGGTCAGTCAATACCCAAGGAACACTTACGTGATGAACAAACGACCATTGCTAGGGGCGTTGAGTGCAATCAGCTTAGGCTTGTGCTCATTT (double strand) [vp0219 regulatory fragment]”, the binding result in data set [1] and in data set [2] was “binds” each time.
On to “CTTCCCTGTAAATAAGTCATCCGTTAGACCATCAAGAAATTAAACCTTAGTTTTTATAATCAAACTCGCTTCTTAATACTTTTCCTCATCCCTGCTTAGCAAGTACCAGCTTTTTCCTAAACAGCAAAACTTAGCCAAAGGTCTAAATTTCATTCTTATTTCCACTTACCTAAACAACACGAATTTTTAAACTTACCTTCGAATTTATGCGTTACAGAAATTCAGAAACATTCATAGAAATGTCTCTGCTCATCAATTAAAACGTTCGCGACACGGCTATTGGGCAATCACCCCAATGGCGGTAGCGTGCTAGAAGGGAAACTAGGTCATGAAACACAAAGGACTAATTCGTTCTTATGAGATGGAGTTCGCTT (double strand) [cpsA upstream fragment]”, for which the binding result in data set [1] is on record as “binds”.
“GATACTATCGCTGAATACGCAGAAACCGGAGTCGATTACATTTCGGTAGGCGCACTAACTAAGCATCTAAAAGCGATGGATCTTTCGATGCGCTTCAAATAACACAAGCAACAAAATTCATATTACTTCAACTAACTCAGTAAGTTGTAAGTAATTCATCATTAAAAAGGGCCACTAGGCCCTTTCTTTTTATCCATTAAAAAATAGCATTACTCGCAAAACTCTGCATACGATATGCAACTTTCTACCAAAGAGTTTTACCTCACTCGAGACCCCATCTCTTCCCCATTTTCAACCTTTATGAAGTCTCCATAATCCTTCGCTAATGCAAGGGCATTATTTATTTCATTAAGAAGGAAAGAAAATGAAACACAGTAAACAGAAAAAACAACAGGGTTTCACTCTGATTG (double strand) [pilA upstream fragment]”: the binding result in data set [1] (setting [3]) and in data set [2] was “binds” throughout.
Turning to “TAGCACGCTTGTGTTGGACTTCTCGCGAGCGATACGCACGTTGTACTTTGCTTGATACGGAAAGCGTTTTATCCCCTACTTCGATATCGATAGGTTCTTCGACGGGTTTGAATACGCACTGCTGAGCAGAAAGTGATTGATCAACCCAAACGAATTTCACGCCACTTGCGCGAAGCTTTTTAATGCCTTCTGCGCTCGAAACTCGACCAGCATTGGCTAAATTGACTCGTTTGTTATGCTCTATCGCGGTAACAAACATGCCGACAGCAACATCTGCGATTGCAATTTTAATTGAGTCTTCTGGGTTGTACTGCATATGGTGACATTTATTAAATACTATTAGGTAACGCGTGCATTATAAAAGATATCGCGCATAGCTGTTATAAGAATCCTCAATTCATTTCAATTAATGAGTATTCAGTCAATTAATAGAGCGATTTACTTCATAAAACCATTTTATTTTTATGGACTTAGCTCAAGAAATGACAGCATTATTAACTAATTTTAATAATTTGAGGAATGCATCAATAACTATTTCATATAAACACGATTTACTGTTGACTAAGTTTTATAAATATCGATGATCAGCAAGTTAAACTGAACGAAGTTTTATTCATTTGAAAGCGCAAGAACATGACTGTCTACTATTTTAAATTAGCATTTGTATCTTAATAATGCGCATGATTACTTCATTTCCCTG (double strand) [scrG upstream fragment]”, the binding result in data set [1] (setting [3]) and in data set [2] was “binds” each time.
For the sequence “TGTTCAGCGTTATCACCAAGCGTGGTTAGTGCAAGGTGAGCCCAATCATATGGAAATGGATGGTTTTCAACTCACCATGACTGAAGGGGGATTGGTGTCGCCGTTCACACAACAAGGCGTACTCGATTGCGGATATTGGTTAGCTGTTCATTACCCGCAACGTAAGATTATGGCTAGTGAGTTATTAGATATTAGCGGAACAATCAAAAGTAATCGTTATATCTGCAACTATACTTATGAAAGTGGCCAAACAATTGTAGTTATGTCTACCGCTAATCGACTGATAATAGACGTCGAAATGTCGGCGGAGTGATTTTTTTGACACTTAAGTACTATAAATGGGAATGAAAGTCGGTATAATGCAAACATTACCATAAGCCTAAGGTTGTAATAAAAGGTAAACCATAAAATGATTACCTTTGTTATCAAACCTTTTCGGAATAATGGCGATTCGTCATTCTGCTCAAGCGGTAGATACAGTATCCACTTCACGGTCAGTTTTAGTGAACGTTGCTGCTCCAAACCGTTTTGACAATATCCAAAATGGTCGCGTGACCTAAACGAAACCTTGCAGTCACACTGCATGCTTACATAGAGAGAGTAAACAATGAAAAGACAAGGTGGTTTCACCCTTATCGAACTAGTAGTGGTTATTGTAATCCTAGGTATTTTAGCGGTAACTGCAGCACCACGTTTCCTTAACCTACAATCAGATGCTCGTGAATCTGCGCTTCAAGGCCTAAAAGGTGCGATTGATGGTGCTTCTGGTAT (double strand) [mshA1 upstream fragment]”, the binding result in data set [1] (setting [3]) and in data set [2] was “binds” in each case.
